Compound potency records, mixed from different reports. Data source: NIAID ChemDB in PubChem.

Common to all: whole-cell or culture tests; organism: Herpes simplex virus 2; read by: plaque count; measure: inhibition

"inactive" is the filed call at that dose; no cut-off is given. Percent inhibition refers to the dose given; in toxicity tests it is the harm to the cells. Neighbouring rows are from separate reports. Blank or dashed fields: not listed here.

SMILES,strain,cells,tested at,value
S=C(NCCc1ccccc1)Nc1ccc(Oc2ccc(NC(=S)NCCc3ccccc3)cc2)cc1,,VERO,1 µM,<50%
CC/C=C/C/C=C/C/C=C/CCCCCCCC(=O)OCC(CO[C@@H]1O[C@H](CO)[C@@H](O)[C@H](O)[C@H]1O)OC(=O)CCCCCCC/C=C/C/C=C/C/C=C/CC,186,VERO,50 µg/mL,97%
NC(=Nc1ccc(Cc2ccc(N=C(N)c3ccccc3)cc2)cc1)c1ccccc1,,VERO,1 µM,<50%
CCCCCCCC/C=C\CCCCCCCC(=O)OC(COC(=O)CCCCCCCCCCCCCCCCCCCCC)CO[C@@H]1O[C@H](CO)[C@@H](O)[C@H](O)[C@H]1O,186,VERO,50 µg/mL,10%
CCC(=O)C(CCCCCCOc1ccc(OC)cc1Cl)C(=O)CC,333,VERO,3 µg/mL,6%
CCCCCCCCCCCCCCCCCC(=O)OCC(CO[C@@H]1O[C@H](CO)[C@@H](O)[C@H](O)[C@H]1O)OC(=O)CCCCCCCCCCC,186,VERO,50 µg/mL,inactive
CN1C(=O)NC(=O)N([C@H]2C[C@H](O)[C@@H](CO)O2)C1(C)C,35D,VERO,25 µM,0%
O=C(O)C(O)c1ccccc1,G,CaSki,1 µg/mL,54%
O=S(=O)(c1ccc(OCc2ccc(Cl)cc2)cc1)c1ccc(OCc2ccc(Cl)cc2)cc1,,VERO,10 µM,>50%
CSc1cnc(=O)n([C@H]2C[C@H](O)[C@@H](CO)O2)c1,333,HeLa,100 µM,0%
Cc1cn([C@H]2C[C@H](O)[C@@H](CO)O2)c(=O)[nH]c1=O,333,HeLa,25 µM,0%
CC(C)=CCCC(CO)C1CCC2C3CC=C4C[C@H](O)[C@@H](O)CC4(C)C3CCC12C,G,VERO,40 µg/mL,67.8%
CCCc1cn([C@H]2C[C@H](O)[C@@H](CO)O2)c(=O)[nH]c1=O,333,HeLa,25 µM,>99%
CC12CC[C@H](OS(=O)(=O)O)CC1=CCC1C2CCC2(C)C(C(=O)CO)CCC12,G,VERO,80 µg/mL,0%
C/C=C/c1cn([C@@H]2O[C@H](CO)[C@@H](O)[C@@H]2O)c(=O)[nH]c1=O,B4327 UR2,VERO,250 µM,10%
CC(=O)O[C@H]1CC2=CCC3C(CCC4(C)C(C(CCC=C(C)C)COS(=O)(=O)O)CCC34)C2(C)C[C@@H]1OS(=O)(=O)O,G,VERO,80 µg/mL,100%
CCCCCCCCCCCC(=O)OCC(CO[C@@H]1O[C@H](CO)[C@@H](O)[C@H](O)[C@H]1O)OC(=O)CCCCCCCCCCC,186,VERO,50 µg/mL,50%
CC(C)CCCC(COS(=O)(=O)O)C1CCC2C3CC=C4C[C@H](O)[C@@H](OS(=O)(=O)O)CC4(C)C3CCC12C,G,VERO,10 µg/mL,16.6%
C/C=C/c1cn([C@H]2C[C@H](O)[C@@H](CO)O2)c(=O)[nH]c1=O,72,VERO,100 µM,30%

The last 2 rows once more:

SMILES | strain | cells | tested at | value
CC(C)CCCC(COS(=O)(=O)O)C1CCC2C3CC=C4C[C@H](O)[C@@H](OS(=O)(=O)O)CC4(C)C3CCC12C | G | VERO | 10 µg/mL | 16.6%
C/C=C/c1cn([C@H]2C[C@H](O)[C@@H](CO)O2)c(=O)[nH]c1=O | 72 | VERO | 100 µM | 30%